# PubChem BioAssay AID1224833 – University of Georgia | 2016
# Assay: 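Host factors restraining rotavirus as candidate antiviral genes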 (primary screen)
# System: monkey MA104 kidney cells
# Reagent: siRNA pool against human genes, 50 nM
# Time to read-out: 48 h knock-down before infection; read 24 h after infection
# Challenge: infection with rotavirus strain RV3 two days after transfection; infectious dose for this stage not given
# Measured: 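Rotavirus antigen per well by fluorescent immunoassay, normalised to non-targeting control wells on each plate and given as a standard z-score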
# Direction: z-score vs non-targeting control: higher = more rotavirus replication than with non-targeting control
# Hit rule: In these data the active calls have z-score vs non-targeting control at about -1 or lower, or at about 1 or higher
# Meaning of the calls: active = z-score beyond 1 either way; inactive = z-score within 1 of zero
# This is a random part of about 12,000 deposited reagents. About 5,600 of them (46%) count as active. 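Active calls cover z-scores past 1 in both directions, so they include lowered as well as raised rotavirus replication.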
Gene,z-score vs non-targeting control,Call
ABCB9,-0.537,inactive
FOXE1,-1.3,active
MS4A10,-0.45,inactive
MEF2C,-0.894,inactive
CDH4,-1.15,active
SZT2,1.91,active
XCL2,0.538,inactive
ZNF408,-0.592,inactive
RBMY1B,-0.327,inactive
THEMIS,0.41,inactive
THAP6,-0.598,inactive
CFAP65,-0.556,inactive
VGF,-3.3,active
SLC4A7,-1.71,active
PCDHAC1,-0.883,inactive
SOSTDC1,1.73,active
DBR1,-0.888,inactive
COA4,2.02,active
DOCK6,-0.889,inactive
FMNL3,-0.514,inactive
AP1G1,-0.396,inactive
STRA6,-0.632,inactive
CC2D1B,0.545,inactive
KLHL24,0.743,inactive
OR2T4,-0.658,inactive
HEXA,-0.766,inactive
SPAG7,0.198,inactive
OR9A2,-1,active
FLOT2,-2.2,active
FTL,-1.44,active
VCL,0.593,inactive
MYO7B,-0.482,inactive
TMEM242,-1.94,active
ETF1,-0.515,inactive
HCAR3,1.62,active
SSU72,0.236,inactive
CNEP1R1,-0.921,inactive
MR1,0.471,inactive
LMX1A,-1.74,active
MUC16,-2.71,active
ZNF559,0.859,inactive
DMRTC2,0.702,inactive
LPAR1,-0.671,inactive
DYNC2LI1,3.07,active
ZNF90,-1.08,active
MAPK6,3.77,active
CCL25,1.81,active
VSIG1,1.83,active
FAM149A,-1.14,active
HOMER1,-1.59,active
OAF,-0.34,inactive
ZKSCAN1,0.763,inactive
NPAT,-0.0641,inactive
EVI2B,0.118,inactive
MED15,-1.01,active
C22orf23,-0.514,inactive
KBTBD11,2.52,active
DPP4,-1.23,active
OR5I1,0.601,inactive
KHDC1,-1.56,active

Ordered by “z-score vs non-targeting control” (high to low): some entries from above
Gene,z-score vs non-targeting control,Call
KLHL24,0.743,inactive
CC2D1B,0.545,inactive
SPAG7,0.198,inactive
STRA6,-0.632,inactive
OR2T4,-0.658,inactive
HEXA,-0.766,inactive
OR9A2,-1,active

Continued:
Gene,z-score vs non-targeting control,Call
GTSE1,-0.918,inactive
NSMAF,-0.512,inactive
NCBP2,-0.0534,inactive
NID1,-0.698,inactive
SDC3,-0.262,inactive
WFDC10A,-0.0735,inactive
CGA,-2.82,active
CFAP43,-0.537,inactive
RAD51D,0.534,inactive
NFE2L1,2.01,active
ADGRD1,2.14,active
DDX1,-0.856,inactive
TNFRSF19,-1.23,active
SLC35A1,-1.97,active
ZNF554,1.5,active
CORO2A,-0.279,inactive
NUP85,0.682,inactive
CRYBG3,-0.238,inactive
MIGA2,1.37,active
PSD3,-1.87,active
EHD4,0.762,inactive
LMAN2L,-1.56,active
DRGX,-1.05,active
PIWIL3,0.961,inactive
MTSS2,-1.22,active
CD81,1.18,active
WDR77,0.896,inactive
BLCAP,-0.505,inactive
ARID3A,-1.03,active
UBTF,-2.48,active
GRWD1,-1.01,active
TPRG1,2.1,active
ATP8B1,-2.5,active
MAGED4,1.36,active
ZNF639,0.403,inactive
OR4D11,-0.284,inactive
PRIM2,-0.553,inactive
CCDC70,-2.18,active
IL6R,0.822,inactive
CSMD1,-0.123,inactive
DNAJB4,-2.34,active
TMEM14A,-1.58,active
WDR46,-0.954,inactive
SLIRP-OT1,-1.9,active
SGSM1,0.104,inactive
USP53,1.35,active
EXT2,-1.45,active
NAV3,-0.404,inactive
ZNF333,0.753,inactive
TMEM167B,-0.777,inactive
